Each structure is given as a SMILES string. Only a part is listed here, and it is no random draw. Active and inactive are the calls of the source. Cut-off read from the data, not from the text of the source: active = Nile Red retention ratio vs DMSO above about 190%; inactive = the rest.

The assay has as its system Candida albicans drug resistance protein 2 (Cdr2) efflux pump, expressed in S. cerevisiae. As to the kind of experiment: inhibitors of Candida albicans Cdr2 efflux pump, confirmation, S. cerevisiae AD/CaCDR2, flow cytometry, cherry pick 1, singleplex (AID 588520).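 Note: higher ratio means more blocking of Cdr2 efflux of the dye.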 As to conditions: at 10 µM, hits give high values. (A flow cytometer gives signals particle by particle.)
In the case of `O=P(Nc1nccs1)(c1ccccc1)c1nc2ccccc2s1` (stereo unspecified), the Nile Red retention ratio vs DMSO is inactive: 97.7%.

The values above are taken from PubChem BioAssay AID588520 (NMMLSC, 2011).
